Legend:
Experiment in all cases: ITC
[1] = target: T1, ATG8-4-V32I, C-terminal 6xHis (Solanum tuberosum (potato))
T1 chain: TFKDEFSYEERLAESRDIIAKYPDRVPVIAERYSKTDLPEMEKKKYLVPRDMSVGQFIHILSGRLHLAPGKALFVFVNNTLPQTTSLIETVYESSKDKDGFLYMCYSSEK

[2] = target: ATG8-3.2 (potato), residues Ser5-Asn114, C-terminal 6xHis (Solanum tuberosum (potato))
[3] = target: ATG8-1.2 (potato), residues Ser5-Asn114, C-terminal 6xHis (Solanum tuberosum (potato))
[4] = target: ATG8-1.1 (potato), residues Ser5-Asn114, C-terminal 6xHis (Solanum tuberosum (potato))
[5] = target: ATG8-3.1 (potato), residues Ser5-Asn114, C-terminal 6xHis (Solanum tuberosum (potato))

Row | Binder | Kd [1] | Kd [2] | Kd [3] | Kd [4] | Kd [5]
1 | KPLDFDWEIV [PexRD54 AIM peptide] | 92 nM |  |  |  | 
2 | KPLDFDWEIV [m10] |  | 54 nM | 253 nM | 297 nM | 116 nM
3 | PexRD54 full-length protein (purified) (natural protein) EGLAPSDQAYRPTMTGLKSRLNDPRPLSTATIATSSERFLRFDTVARDTAGNDEERVGPSWLAKVDGLMHKMVTSSLSAEEAQLKVWIQSQIHPRELFGVLSLGKRAAKLDDNPDFVQWLRLVKDFRANNGNQAFSDLDIYYLLLKTNSPEQLKLLFETLRHTPGMTKIGASMEKSLSGNWIRKALEQDTYPTIVYNTLRLKDAGTKLDDTPMFRQWLEYVEKYWNKNAGAFFGDTQMLTLFQKTMTEEEDIIKLVHMLRNNPGMKSHADKLERYLLLTSESSHKTMADVWLKARETPEEVFRILRLAEKQTAAADDNRMLNLWLRYTQTYRDKIDKNAFSDAEALQFFRKAKPLDFDWEIV | 593 nM |  |  |  | 

Source: paper PMC6675122 (2019)
